Pooled drug test results. Numbers come from NIAID ChemDB, via PubChem.

Shared fields: tests in culture; species: Pneumocystis carinii; endpoint: EC50

An empty or dashed field is not shown.

| SMILES | conditions | method | cell line | result |
|---|---|---|---|---|
| NC(=NC1CCCCCC1)c1ccc(N2CCN(c3ccc(C(N)=NC4CCCCCC4)cc3)CC2)cc1 | - | ATP | - | 0.069 µg/mL |
| Cl.Cl.NC(=NC1CCCCCCC1)c1ccc(N2CCN(c3ccc(C(N)=NC4CCCCCCC4)cc3)CC2)cc1 | - | ATP | A549 | 0.019 µg/mL |
| N=C(N)c1ccc(N2CCCN(c3ccc(C(=N)N)cc3)CC2)cc1 | - | - | - | <1 µM |
| NC(=NC1CCCCCCC1)c1ccc(N2CCN(c3ccc(C(N)=NC4CCCCCCC4)cc3)CC2)cc1 | - | ATP | - | 0.195 µg/mL |
| Cc1c(O)c(=O)ccn1C | 7 d | - | Human fibroblasts | <72 µM |
| CN(C)c1nc(N)c(C(=O)N=C(N)N)nc1Cl | - | - | - | >100 µM |
| CCCCCN=C(N)c1ccc(N2CCCN(c3ccc(C(N)=NCCCCC)cc3)CC2)cc1 | - | - | - | >1 µM |
| CCc1c(O)c(=O)ccn1CCOC | 7 d | - | Human fibroblasts | >18 µM |
| CCCCCCCN=C(N)c1ccc(N2CCN(c3ccc(C(N)=NCCCCCCC)cc3)CC2)cc1 | - | ATP | - | 0.034 µg/mL |
| [Ca+2] | 7 d | - | Human fibroblasts | >30 µM |
| CCC(C)CN=C(N)c1ccc(N2CCN(c3ccc(C(N)=NCC(C)CC)cc3)CC2)cc1.Cl.Cl | - | ATP | A549 | 0.001 µg/mL |
| COCCn1ccc(=O)c(O)c1C | 7 d | - | Human fibroblasts | >18 µM |
| c1ccc(N2CCN(c3ccccc3)C2c2ccc(N3CCN(c4ccc(C5N(c6ccccc6)CCN5c5ccccc5)cc4)CC3)cc2)cc1 | - | ATP | - | >100 µg/mL |
| c1cc(N2CCCN(c3ccc(C4=NCCCN4)cc3)CC2)ccc1C1=NCCCN1 | - | - | - | <1 µM |
| CCC(C)CN=C(N)c1ccc(N2CCN(c3ccc(C(N)=NCC(C)CC)cc3)CC2)cc1 | - | ATP | - | 0.001 µg/mL |
| Cl.Cl.N=C(N)c1ccc(NC(=O)CCCC(=O)Nc2ccc(C(=N)N)cc2)cc1 | - | ATP | A549 | 0.001 µg/mL |

For reference, 2 entries again:

SMILES	conditions	method	cell line	result
CCc1c(O)c(=O)ccn1CCOC	7 d	-	Human fibroblasts	>18 µM
NC(=NC1CCCCCC1)c1ccc(N2CCN(c3ccc(C(N)=NC4CCCCCC4)cc3)CC2)cc1	-	ATP	-	0.069 µg/mL

ECn is the concentration giving n% inhibition of infection, replication or growth. Lines come from different laboratories, so protocols vary.